Compound potency records, mixed from different reports. Data source: NIAID ChemDB in PubChem.

All rows: toxicity to cultured cells; cell line: A549; read-out: CC50

Conditions beyond the fields shown may differ between rows. CCn: concentration that lowers growth or viability of the cells by n%.

CO[C@H]1/C=C/O[C@@]2(C)Oc3c(C)c(O)c4c(O)c(c(/C=N/N5CCN(C)CC5)c(O)c4c3C2=O)NC(=O)/C(C)=C\C=C\[C@H](C)[C@H](O)[C@@H](C)[C@@H](O)[C@@H](C)[C@H](OC(C)=O)[C@@H]1C ; method: resazurin ; value: >100 µg/mL
COC1=CC([C@@H]2c3cc4c(cc3[C@H](O)[C@@H]3COC(=O)[C@H]32)OCO4)=CC(=O)C1=O ; value: 1.3 µM
COc1ccc(-c2noc(C3=CC4(CCN(C(=O)[C@H]5CCCN5C)CC4)c4ccccc43)n2)cc1 ; method: resazurin ; value: 4 µM
O=c1c2ccccc2[se]n1C1CCCCC1 ; method: visual reading ; value: 3 µg/mL
COc1cc([C@@H]2c3cc4c(cc3[C@H](OC(C)=O)[C@@H]3COC(=O)[C@@H]23)OCO4)cc2nccnc12 ; value: 0.56 µM
COc1ccc(-c2cc(OC)c(O)c(OC)c2O)cc1 ; method: sulforhodamine / absorbance ; value: >50 µM
COc1ccc(-c2cc(=O)c3c(OC)cc(OC)c([C@H]4C(=O)c5c(OC)cc(OC)cc5O[C@@H]4c4ccc(OC)cc4)c3o2)cc1 ; method: visual reading ; value: 47 µg/mL
O=C1N(CC2CC2)c2ccccc2C12CCN(CC1CCCO1)CC2 ; method: resazurin ; value: >50 µM
O=c1cc(-c2ccc(O)c(-c3c(O)cc(O)c4c(=O)cc(-c5ccc(O)cc5)oc34)c2)oc2cc(O)cc(O)c12 ; method: visual reading ; value: 18 µg/mL
CC(C)=CC[C@H]1C[C@@]2(C[C@H]3CCC(C)(C)C=C3C)C(=O)[C@](C(=O)c3ccccc3)(C(=O)C3=C2OC(C)(C)CC3)C1(C)C ; method: sulforhodamine / absorbance ; value: >50 µM
O=C(O)C[C@H]1C(=O)O[C@H]2[C@H](OC(=O)c3cc(O)c(O)c(O)c3)[C@@H](OC(=O)c3cc(O)c(O)c4c3[C@H]1[C@H](O)C(=O)O4)[C@H](OC(=O)c1cc(O)c(O)c(O)c1)O[C@@H]2COC(=O)c1cc(O)c(O)c(O)c1 ; method: XTT ; value: 331 µM
COc1ccc(-c2noc(C3=CC4(CCN(Cc5nc(C)no5)CC4)c4ccccc43)n2)cc1 ; method: resazurin ; value: 37 µM
O=C(O)C[C@@H]1C(=O)O[C@H]2[C@@H]3OC(=O)c4cc(O)c(O)c(O)c4-c4c(cc(O)c(O)c4O)C(=O)OC[C@H]2O[C@@H](OC(=O)c2cc(O)c(O)c(O)c2)[C@@H]3OC(=O)c2cc(O)c(O)c3c2[C@H]1[C@H](O)C(=O)O3 ; method: XTT ; value: 317 µM
O=C1c2c(O)cc(O)cc2O[C@@H](c2ccc(O)cc2)[C@@H]1c1c(O)cc(O)c2c(=O)cc(-c3ccc(O)c(O)c3)oc12 ; method: sulforhodamine / absorbance ; value: >50 µM
Cc1cccnc1-n1[se]c2ccccc2c1=O ; value: 230 µg/mL
O=C(NC1CCCCC1)n1[se]c2ccccc2c1=O ; method: visual reading ; value: 34 µg/mL
COc1ccc(-c2noc(C3=CC4(CCN(CC(=O)N(C)C)CC4)c4ccccc43)n2)cc1 ; method: resazurin ; value: 12 µM
O=c1c2ccccc2[se]n1CCO ; method: visual reading ; value: 4 µg/mL
COC(=O)[C@H]1C2CON=C2c2cc3c(cc2[C@H]1c1cc(OC)c(OC)c(OC)c1)OCO3 ; value: 5.7 µM
COc1cc2c(OC3OCC(O)(CO)C3OC3OCC(O)C(O)C3O)c3c(c(-c4cc5c(cc4O)OCO5)c2cc1OC)C(=O)OC3 ; method: absorbance ; value: >50 µM
C/C=C/c1ccc2c(c1)[C@H](C)[C@@H](c1ccc(O)cc1)O2 ; method: sulforhodamine / absorbance ; value: 41.7 µM
CC1CCN(c2sc([N+](=O)[O-])cc2[N+](=O)[O-])CC1 ; method: resazurin ; value: 4 µg/mL
O=c1c2ccccc2[se]n1C(CO)CO ; method: visual reading ; value: 15 µg/mL
O=c1c2cccnc2[se]n1N(c1ccccc1)c1ccccn1 ; value: 70 µg/mL
COC(OC)C(C)n1[se]c2ccccc2c1=O ; method: visual reading ; value: 2.5 µg/mL
CC1CC(C)CN(c2sc([N+](=O)[O-])cc2[N+](=O)[O-])C1 ; method: resazurin ; value: 75 µg/mL
O=c1cc(-c2ccc(Oc3c(O)cc4oc(-c5ccc(O)cc5)cc(=O)c4c3O)cc2)oc2cc(O)cc(O)c12 ; method: visual reading ; value: 22 µg/mL
C#CNc1c2c(c(-c3ccc4c(c3)OCO4)c3cc(OC)c(OC)cc13)C(=O)OC2 ; method: absorbance ; value: 1.581 µM
CC(=O)c1cc([N+](=O)[O-])c(N2CC(C)CC(C)C2)s1 ; method: resazurin ; value: 29 µg/mL
C[n+]1cccc2c(=O)n(-c3ccccn3)[se]c21 ; value: 31.2 µg/mL
CC(C)=CC[C@H]1C[C@@]2(C[C@H]3CCC(C)(C)C=C3C)C(=O)[C@](C(=O)c3ccccc3)(C(=O)C3=C2OC(C)(C)C=C3)C1(C)C ; method: sulforhodamine / absorbance ; value: >50 µM
CCC(O)CN1CCC2(C=C(c3nc(-c4ccc(OC)cc4)no3)c3ccccc32)CC1 ; method: resazurin ; value: 19 µM
CC1Oc2cc(O)c3c(=O)c4ccc(O)c(O)c4oc3c2C1(C)C ; method: sulforhodamine / absorbance ; value: 6.43 µM
O=c1c2cccnc2[se]n1N(c1ccccc1)c1cc(Cl)ccn1 ; value: 80 µg/mL
COc1ccc(-c2noc(C3=CC4(CCN(C(=O)C5CCCO5)CC4)c4ccccc43)n2)cc1 ; method: resazurin ; value: 37 µM
COC(=O)[C@@H]1[C@H](c2cc(OC)c3nc4cc(C)c(C)cc4nc3c2)c2cc3c(cc2C2=NOC[C@@H]21)OCO3 ; value: 1 µM

Repeating the final 3 entries:

{"SMILES": "O=c1c2cccnc2[se]n1N(c1ccccc1)c1cc(Cl)ccn1", "value": "80 µg/mL"}
{"SMILES": "COc1ccc(-c2noc(C3=CC4(CCN(C(=O)C5CCCO5)CC4)c4ccccc43)n2)cc1", "method": "resazurin", "value": "37 µM"}
{"SMILES": "COC(=O)[C@@H]1[C@H](c2cc(OC)c3nc4cc(C)c(C)cc4nc3c2)c2cc3c(cc2C2=NOC[C@@H]21)OCO3", "value": "1 µM"}